# Library screen at single concentrations

Data taken from ChEMBL document CHEMBL3988442, “University of Dundee, Small-Polar-MMV Screening Library” (2021).

A: 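Phenotypic screen: M. tuberculosis growth, glucose 7H9 medium, 3 days; the read-out is not stated. Tested at 500 µM. The record gives no direction; compounds that gave an IC50 in retests scored well above the rest, so higher reads as more growth inhibition. Size under these conditions: about 18,000 compounds, about 1,400 of them at 50% or above in at least one test.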
B: 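Whole-cell growth test on Mycobacterium tuberculosis, read after 4 days in a medium based on cholesterol and the lipid DPPC; the read-out is not stated. Tested at 500 µM. Higher reads as more growth inhibition (inferred: compounds with an IC50 in retests scored well above the rest). Size under these conditions: about 18,000 compounds, about 900 of them at 50% or above in at least one test.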

The filed quantity is “Percent Effect” (%). The controls that fix the scale are not given in the record; negative values are as filed. This is part of a subset picked to be rich in strong results. A dash means the value is not listed here; it may have been measured.

compound,A,B
Cc1nnc(CCNC(=O)c2c(C)nn(C)c2C)s1,-9.067,-
N#CCOC(=O)c1ccc2c(c1)OCCCO2,-,51.62
CCN(C)CCNS(=O)(=O)c1ccc(C(C)=O)cc1,41.85,-
Cc1cc(NC(=O)NCc2cccc(C)n2)ccn1,-,-12.33
c1cncc(-c2nc(SCC3CCCCO3)n[nH]2)c1 (stereo unspecified),64.2,64.46
CC(C)C(Nc1ccncc1Cl)C(=O)N1CCOCC1 (stereo unspecified),1.369,-
CCN1CCN(C2CCNCC2)CC1,-9.51,-
N#Cc1ccsc1C(=O)N1CCN(CCO)CC1,-4.463,-
CN(C)C(CNC(=O)c1ncccc1O)c1ccco1 (stereo unspecified),6.02,-
Nc1nc(N)nc(COC(=O)Cc2ccsc2)n1,14.3,-
COCCn1ccnc1CN(C)Cc1nnc(C)o1,4.742,-
CC(=O)N1CCCN(c2ccncc2N)CC1,2.683,-
COc1ccc(CN2CCC(N)C2=O)c(OC)c1 (stereo unspecified),15.28,-
CC(Sc1nnc(NCc2ccc(F)cc2)s1)C(N)=O (stereo unspecified),3.869,-
COc1ccc(C(N)C2CCOCC2)cc1 (stereo unspecified),-1.76,-
COCCc1nc(CCC(F)(F)F)n(CCO)n1,1.681,-
COCCN(Cc1ccncc1)C(=O)CC1CCNC1 (stereo unspecified),-7.094,-
Nc1nccnc1C(=O)NCc1ccccc1,55.97,22.46
O=C(NCCn1cncn1)[C@@H](O)Cc1ccccc1,12.27,-
CC(C)CCNC(=O)c1ccccc1S(C)(=O)=O,2.287,-
CN(C)C(=O)c1cc(-c2cccs2)on1,53.88,61.09
CC1CCCN(C(=O)CCN2CCOC2=O)C1 (stereo unspecified),14.72,-
CCOC(=O)c1ccc(CN2CCOCC2)cn1,-,56.84
CCN1CCN(CCCNC(=O)c2cnccn2)CC1,-9.86,-
CCOc1cccc(CN(C)S(=O)(=O)c2cccs2)n1,77.93,76.27
Cc1csc(CCCNC(=O)Cn2nc(C)cc2N)n1,-,10.83
CCOCCN1CCN(C2(C(N)=O)CCCCC2)CC1,11.83,-
CNC(=O)C(NC(=O)c1cnccn1)c1ccccc1 (stereo unspecified),-,-11.02
CN(C)S(=O)(=O)NCCNc1ccc2ccccc2n1,71.64,52.74
CSCCC(NS(=O)(=O)c1ccc(C)cc1)C(N)=O (stereo unspecified),-,-9.904
CCNC(=O)c1cc(N2CCC(C(N)=O)C2)ccn1 (stereo unspecified),-2.445,-
CN(C)c1ncc(CN(CCO)Cc2nccs2)cn1,43.52,-
CN1C(=O)[C@H]2CN(Cc3ccsc3)C[C@H]2C1=O,3.554,-
OCCN1CCN(c2ccc(CO)nn2)CC1,-11.86,-
O=C(NCCC(F)(F)F)NC1CCC2(CC1)OCCO2,-,10.92
OCCOc1ccc(CNCCn2cccn2)c(Br)c1,43.37,-
CN(CC1CCOCC1)C(=O)NCc1ccco1,54.87,-
CC(C)c1ccc2c(c1)C(N)C(=O)N2 (stereo unspecified),87.47,50.54
CN(C)c1ncccc1CNC(=O)N1CCCC1,9.172,-
CC(C#N)Sc1nnc(-c2cccnc2)n1C (stereo unspecified),7.171,12.72
Cc1nc(N)sc1C#N,13.45,-
COc1ccc(NC(=O)Cn2ccnc2)c(OC)c1,-,8.343
CSc1ncc(CN2C[C@@H]3CCC[C@H](C2)C(=O)N3)cn1,36.54,-
N[C@@H]1C[C@@H]1N1CCOCC1,20.92,-
NCCNC(=O)c1ccccc1C(F)(F)F,-,-6.554
CCOC(=O)Cn1cnc2sc(C(N)=O)c(C)c2c1=O,-,-1.917
Cc1cnc(N2CCCN(CCO)CC2)nc1C,-,6.196
CCOc1ccc(CSc2nnc[nH]2)cc1,64.43,55.64
CC(C)Cn1[nH]ccc1=NC(=O)Cn1cnc(C#N)n1,-1.645,-
O[C@@H]1CCN[C@@H]1c1ccc(Cl)cc1,19.25,-
CSc1ccccc1C(=O)NCCN(C)C,3.954,-
COC(=O)CCCC(=O)Nc1ncc(C)[nH]1,8.855,-
COC(=O)CN1C(=O)CCc2ccccc21,11.83,-
CC1c2ccsc2CCN1CCC(=O)N(C)C (stereo unspecified),43.36,18.86
CCCC(O)(CCC)CC(=O)N1CCNC(=O)C1,-1.117,-

For reference, 7 entries once more:

Result for CSCCC(NS(=O)(=O)c1ccc(C)cc1)C(N)=O (stereo unspecified) was B: -9.904%.
Result for CN(C)C(=O)c1cc(-c2cccs2)on1 was A: 53.88%; B: 61.09%.
Result for CCOCCN1CCN(C2(C(N)=O)CCCCC2)CC1 was A: 11.83%.
Result for COCCn1ccnc1CN(C)Cc1nnc(C)o1 was A: 4.742%.
Result for Cc1nnc(CCNC(=O)c2c(C)nn(C)c2C)s1 was A: -9.067%.
Result for COc1ccc(C(N)C2CCOCC2)cc1 (stereo unspecified) was A: -1.76%.
Result for CN(C)S(=O)(=O)NCCNc1ccc2ccccc2n1 was A: 71.64%; B: 52.74%.